A mixed list of measured activities; the numbers were collected in NIAID ChemDB.

Common to all: tests in culture; species: Mycobacterium kansasii

Conditions beyond the fields shown may differ between rows.

SMILES,strain,endpoint,conditions,read by,value
CC(C)C[C@H](NC(=O)OCc1ccccc1)c1cnc(-c2ccccc2)[nH]1,My 6509/96,MIC,7 d,-,>125 µM
O=C(Oc1ccc(Cl)cc1C(=O)Nc1cccc(F)c1)c1cnccn1,6509/96,MIC,14 d,-,8 µM
O=C(Nc1cccc(Cl)c1)c1cc(Cl)ccc1OS(=O)(=O)c1ccccc1,6509/96,MIC,7 d,-,8 µM
CC(C)[C@H](NC(=O)OCc1ccccc1)c1cnc(-c2ccc([N+](=O)[O-])cc2)[nH]1,My 6509/96,MIC,7 d,-,16 µM
O=C(Nc1ccc(F)cc1)c1cc(Cl)ccc1O,235/80,MIC,21 d,broth dilution,4 µM
O=c1oc2ccc(Cl)cc2c(=S)n1-c1ccc(F)cc1,My 235/80,MIC,21 d,-,16 µM
O=C(Nc1cccc(F)c1)c1cc(Cl)ccc1O,235/80,MIC,14 d,broth dilution,8 µM
O=C(Oc1cc(Cl)ccc1C(=O)Nc1ccc(Cl)c(Cl)c1)c1cnccn1,6509/96,MIC,21 d,-,4 µM
Fc1ccc2oc(=S)n(-c3ccccc3)c(=S)c2c1,My 235/80,MIC,14 d,-,4 µM
O=C(NNC(=O)c1ccncc1)Nc1ccc(Br)c(F)c1,My 235/80,MIC100,14 d,broth dilution,>125 µM
O=C(NC1CCCCC1)N(C(=O)c1cnccn1)C1CCCCC1,6509/96,MIC,21 d,-,500 µM
COc1ccc(Nc2nnc(-c3ccncc3)o2)cc1,My 6509/96,MIC100,21 d,broth dilution,>125 µM
O=c1oc2ccc(Br)cc2c(=S)n1-c1ccc(Br)cc1,6509/96,MIC,14 d,-,4 µM
O=C(Nc1ccc(Br)cc1)c1cc(Cl)ccc1OS(=O)(=O)c1ccccc1,6509/96,MIC,14 d,-,8 µM
FC(F)(F)c1ccc(-n2c(=S)oc3ccc(Cl)cc3c2=S)cc1,6509/96,MIC,14 d,-,16 µM
O=C(Oc1cc(Cl)ccc1C(=O)Nc1ccc(Cl)cc1)c1ccccc1,235/80,MIC,14 d,broth dilution,2 µM
N/C(=N\N=C\c1cc(Cl)ccc1O)SCc1ccc(Cl)cc1,ATCC 12478,MIC,14 d,broth dilution,32 µM
O=C(Oc1cc(Cl)ccc1C(=O)Nc1ccc(Br)cc1)c1cnccn1,6509/96,MIC,21 d,-,4 µM
N/C(=N\N=C\c1cc(Cl)ccc1O)SCc1cccc(Cl)c1,ATCC 12478,MIC,14 d,broth dilution,32 µM
C[C@H](NC(=O)OCc1ccccc1)c1cnc(-c2ccc([N+](=O)[O-])cc2)[nH]1,My 6509/96,MIC,7 d,-,>125 µM
O=C(Nc1cccc(Br)c1)c1cc(Cl)ccc1OS(=O)(=O)c1ccccc1,6509/96,MIC,14 d,-,8 µM
O=C(N[C@@H](Cc1ccccc1)c1cnc(-c2ccc([N+](=O)[O-])cc2)[nH]1)OCc1ccccc1,My 6509/96,MIC,14 d,-,16 µM
N/C(=N\N=C\c1cc(Br)ccc1O)SCc1cccc(Cl)c1,ATCC 12478,MIC,14 d,broth dilution,32 µM
O=C(Oc1ccc(Br)cc1C(=O)Nc1ccc(C(F)(F)F)cc1)c1cnccn1,235/80,MIC,21 d,-,4 µM
COc1ccc(NC(=O)NNC(=O)c2ccncc2)cc1,My 6509/96,MIC100,21 d,broth dilution,>125 µM
O=C(Nc1ccc(C(F)(F)F)cc1)c1ccc(Cl)cc1OS(=O)(=O)c1ccccc1,235/80,MIC,7 d,-,2 µM
COC(=O)c1cnccn1,6509/96,MIC,14 d,-,500 µM
Cc1ccc(NC(=O)NNC(=O)c2ccncc2)cc1,My 6509/96,MIC100,7 d,broth dilution,62.5 µM
O=C(Nc1ccc(Cl)c(Cl)c1)c1ccc(Cl)cc1OS(=O)(=O)c1ccccc1,235/80,MIC,21 d,-,8 µM
N/C(=N\N=C\c1ccccc1)SCc1ccc(C(F)(F)F)cc1,6509/96,MIC,21 d,broth dilution,62.5 µM
O=c1oc2ccc(Br)cc2c(=S)n1-c1ccc(C(F)(F)F)cc1,My 235/80,MIC,14 d,-,8 µM
O=C(Nc1cccc(F)c1)c1ccc(Cl)cc1OS(=O)(=O)c1ccccc1,235/80,MIC,14 d,-,32 µM
N/C(=N\N=C\c1cc(Cl)ccc1O)SCc1ccc(F)cc1,6509/96,MIC,14 d,broth dilution,32 µM
CC[C@@H](C)[C@H](NC(=O)OCc1ccccc1)c1cnc(-c2ccccc2)[nH]1,My 235/80,MIC,7 d,-,32 µM
O=C(Oc1ccc(Cl)cc1)c1cnccn1,6509/96,MIC,14 d,-,250 µM
O=C(Oc1ccc(Cl)cc1C(=O)Nc1cccc(Cl)c1)c1ccccc1,6509/96,MIC,21 d,broth dilution,8 µM
O=C(N[C@@H](Cc1ccccc1)c1cnc(-c2ccccc2)[nH]1)OCc1ccccc1,My 6509/96,MIC,21 d,-,>250 µM
O=C(Oc1ccc(Cl)cc1C(=O)Nc1ccc(Br)cc1)c1cnccn1,235/80,MIC,7 d,-,2 µM
Cc1ccc(CS/C(N)=N/N=C/c2ccccc2)cc1,ATCC 12478,MIC,14 d,broth dilution,62.5 µM
O=C(Oc1cc(Cl)ccc1C(=O)Nc1ccc(C(F)(F)F)cc1)c1ccccc1,6509/96,MIC,7 d,broth dilution,1 µM

For reference, 6 entries again:

{"SMILES": "O=C(Oc1cc(Cl)ccc1C(=O)Nc1ccc(C(F)(F)F)cc1)c1ccccc1", "strain": "6509/96", "endpoint": "MIC", "conditions": "7 d", "read by": "broth dilution", "value": "1 µM"}
{"SMILES": "CC(C)[C@H](NC(=O)OCc1ccccc1)c1cnc(-c2ccc([N+](=O)[O-])cc2)[nH]1", "strain": "My 6509/96", "endpoint": "MIC", "conditions": "7 d", "value": "16 µM"}
{"SMILES": "O=C(Oc1cc(Cl)ccc1C(=O)Nc1ccc(Cl)c(Cl)c1)c1cnccn1", "strain": "6509/96", "endpoint": "MIC", "conditions": "21 d", "value": "4 µM"}
{"SMILES": "O=C(NNC(=O)c1ccncc1)Nc1ccc(Br)c(F)c1", "strain": "My 235/80", "endpoint": "MIC100", "conditions": "14 d", "read by": "broth dilution", "value": ">125 µM"}
{"SMILES": "O=C(Oc1ccc(Br)cc1C(=O)Nc1ccc(C(F)(F)F)cc1)c1cnccn1", "strain": "235/80", "endpoint": "MIC", "conditions": "21 d", "value": "4 µM"}
{"SMILES": "COC(=O)c1cnccn1", "strain": "6509/96", "endpoint": "MIC", "conditions": "14 d", "value": "500 µM"}

An empty or dashed field is not shown. MIC50, MIC90 and the like: level of inhibition, or share of isolates inhibited.